Results of unrelated studies side by side (data: NIAID ChemDB).

All rows: growth or infection tests; organism: Mycobacterium tuberculosis

A number after MIC or MFC names an inhibition level or a share of isolates. Neighbouring rows are from separate reports. Percent inhibition refers to the dose given; in toxicity tests it is the harm to the cells. Blank or dashed fields: not listed here. ECn is the concentration giving n% inhibition of infection, replication or growth. MIC bound: limit read from a one-dose screen.

SMILES,strain,mutations,method,measure,dose,value
Cn1c2ccccc2c2cc(C=NNc3nc(-c4ccc(Cl)cc4)cs3)ccc21,H37Rv,-,fluorescence,MIC,-,>200 µM
Nc1ccc(Sc2ccc(O)cc2)c2ncccc12,H37Rv,-,-,MIC,-,40 µg/mL
N#CC(Nc1ccc(Cl)cc1)c1ccc(OCc2nc3ccccc3[nH]2)cc1,H37Rv,-,resazurin,MIC,-,4.68 µg/mL
Cn1c2ccccc2c2cc(C=NNc3nc(-c4cccc([N+](=O)[O-])c4)cs3)ccc21,H37Rv,-,fluorescence,MIC,-,>200 µM
CCOC(=O)c1c(NC(=O)c2cc(C(F)(F)F)cc(C(F)(F)F)c2)sc2c1CCCC2,H37Rv,-,resazurin,MIC,-,>200 µM
CCOC(=O)c1[nH]c(C)c(/C=N/NC(N)=O)c1C,H37Rv,-,BACTEC,inhibition,12.5 µg/mL,25%
COc1cc(C2C(C(=O)Nc3ccc([N+](=O)[O-])cc3)=C(C)NC(C)=C2C(=O)Nc2ccc([N+](=O)[O-])cc2)cc(OC)c1OC,H37Rv,-,-,MIC,-,>6.25 µg/mL
NNC(=O)c1ccncc1,CDC1551,-,BACTEC,MIC,-,0.023 µg/mL
CC(C)=C[C@@H]1C[C@H](C)[C@H]2CC[C@H](C)c3c2c1c(C)c1ncoc31,-,-,-,EC50,-,<12.5 µg/mL
C[n+]1ccn2cc(S(=O)(=O)[O-])ccc21,H37Rv,-,BACTEC,MIC bound,-,>12.5 µg/mL
Cc1cc(C)cc(Oc2ccc(N)c3cccnc23)c1,H37Rv,-,-,MIC,-,0.1 µg/mL
O=[n+]1c(Sc2ccccc2)c(CBr)n([O-])c2ccc(C(F)(F)F)cc21,H37Rv,-,-,MIC,-,>6.25 µg/mL
C[C@H]1[C@H](C)Oc2c3c(c4c(-c5ccccc5)cc(=O)oc4c2[C@H]1O)OC(C)(C)C=C3,H37Rv,-,BACTEC,MIC,-,<12.5 µg/mL
O=[N+]([O-])c1ccc(Oc2cnc3nc(-c4cccc([N+](=O)[O-])c4)[nH]c3c2)cc1,H37Rv,-,resazurin / absorbance,MIC80,-,2.6 µM
CC[C@H]1OC(=O)[C@H](C)[C@@H](O[C@H]2C[C@@](C)(OC)[C@@H](O)[C@H](C)O2)[C@H](C)[C@@H](O[C@@H]2O[C@H](C)C[C@H](N(C)C)[C@H]2O)[C@](C)(O)C[C@@H](C)C(=O)[C@H](C)[C@@H](O)[C@]1(C)O,-,-,-,MIC50,-,>10 µg/mL
NNC(=O)c1ccncc1,H37Rv,Rifampicin-resistant S522L,resazurin,MIC,-,0.18 µM
Cn1c2ccccc2c2cc(C=NNc3nc(-c4cccc(F)c4)cs3)ccc21,H37Rv,-,fluorescence,MIC,-,>200 µM
Nc1ccc(SC2NC=CS2)c2ncccc12,H37Rv,-,-,MIC,-,1 µg/mL
CC(=O)Nc1ccc(C(=O)N2C(=N)C(C#N)=C(O)/C2=C\c2ccc(Cl)c(Cl)c2)cc1,H37Rv,-,resazurin,MIC bound,-,>6.25 µg/mL
COc1ccc(NC(C#N)c2ccc(OCc3nc4ccccc4[nH]3)cc2)cc1,H37Rv,-,resazurin,inhibition,6.25 µg/mL,63%
Nc1ccc(S(=O)(=O)c2ccc(O)cc2)c2ncccc12,H37Rv,-,-,MIC,-,100 µg/mL
Cc1ccc2c(c1)n([O-])c(C)c(S(=O)(=O)c1ccccc1)[n+]2=O,H37Rv,-,-,MIC,-,3.13 µg/mL
CO[C@H]1/C=C/O[C@@]2(C)Oc3c(C)c(O)c4c(O)c(c5c(c4c3C2=O)NC2(CCN(CC(C)C)CC2)N=5)=NC(=O)/C(C)=C\C=C\[C@H](C)[C@H](O)[C@@H](C)[C@@H](O)[C@@H](C)[C@H](OC(C)=O)[C@@H]1C,30 isolates/HIV+,-,-,MIC50,-,0.5 µg/mL
Cc1ccccc1S(=O)(=O)c1ccc(N)c2cccnc12,H37Rv,-,-,MIC,-,0.1 µg/mL
O=[N+]([O-])c1ccc(Oc2cnc3nc(-c4ccc(O)c(O)c4)[nH]c3c2)cc1,H37Rv,-,resazurin / absorbance,MIC80,-,1.2 µM
COC(=O)C1=CO[C@@H](O[C@@H]2O[C@H](CO)[C@@H](O)[C@H](O)[C@H]2O)[C@H]2[C@@H]1C(=O)C[C@@H]2C,H37Rv,-,BACTEC,MIC bound,-,>12.5 µg/mL
Cn1c2ccccc2c2cc(C=NNc3nc(-c4cccc(Cl)c4)cs3)ccc21,H37Rv,-,fluorescence,EC90,-,>200 µM
NCC[C@H](O)C(=O)N[C@@H]1C[C@H](N)[C@@H](O[C@H]2O[C@H](CN)[C@@H](O)[C@H](O)[C@H]2O)[C@H](O)[C@H]1O[C@H]1O[C@H](CO)[C@@H](O)[C@H](N)[C@H]1O,30 isolates/HIV+,-,-,MIC50,-,16 µg/mL
CCCCNC(=O)c1cc(-c2ccccc2)sc1N,H37Rv,-,resazurin,MIC,-,>300 µM
CCCN=Cc1cnc(C#N)c(N)n1,H37Rv,-,BACTEC,inhibition,12.5 µg/mL,26%
CO[C@H]1/C=C/O[C@@]2(C)Oc3c(C)c(O)c4c(O)c(c5c(c4c3C2=O)NC2(CCN(CC(C)C)CC2)N=5)=NC(=O)/C(C)=C\C=C\[C@H](C)[C@H](O)[C@@H](C)[C@@H](O)[C@@H](C)[C@H](OC(C)=O)[C@@H]1C,2227 (rifampicin-resistant),-,-,MIC,-,0.25 µg/mL
NC(=S)N/N=C/c1ccc2oc3ccccc3c2c1,EMB-R,-,-,MIC,-,0.1 µg/mL
CCOC(=O)c1c(NC(=O)c2c(F)c(F)c(F)c(F)c2F)sc2c1CCN(CC)C2,H37Rv,-,resazurin,MIC,-,0.69 µM
Cc1ccc(C)c(Oc2ccc(N)c3cccnc23)c1,H37Rv,-,-,MIC,-,40 µg/mL
CC(=O)NC1C(CO)OC2OC(C)(C)OC21,H37Rv,-,BACTEC,inhibition,12.5 µg/mL,-23%
C/C=C1\C(=O)O[C@]23C=C[C@@H]4C(C(=O)OC)=CO[C@H](O[C@@H]12)[C@@H]43,MDR4 clinical isolate,-,MTT,MIC,-,2.6 µg/mL
Cn1c2ccccc2c2cc(C=NNc3nc(-c4cccs4)cs3)ccc21,H37Rv,-,fluorescence,EC90,-,>50 µM
CCCCCC[C@@]1(C)Cn2cc([N+](=O)[O-])nc2O1,H37Rv,-,visual reading / absorbance,MIC100,-,0.01 µg/mL
Cc1c(S(=O)(=O)c2ccccc2)[n+](=O)c2cc(F)c(F)cc2n1[O-],H37Rv,-,-,inhibition,6.25 µg/mL,27%
CC1=C(C(=O)Nc2cc(C)ccc2C)C(c2ccc([N+](=O)[O-])cc2)C(C(=O)Nc2cc(C)ccc2C)=C(C)N1,H37Rv,-,-,MIC,-,>6.25 µg/mL
Cc1ccc(NC(C#N)c2ccc(OCc3nc4ccccc4[nH]3)cc2)cc1,H37Rv,-,resazurin,inhibition,6.25 µg/mL,54%
CC1=C(C(=O)Nc2ccc(F)cc2)C(c2ccc(O)cc2)C(C(=O)Nc2ccc(F)cc2)=C(C)N1,H37Rv,-,-,MIC,-,>6.25 µg/mL
COc1ccc(C(C)c2cc3c(cc2OC)OCO3)cc1,H37Rv,-,BACTEC,MIC,-,≥12.8 µg/mL
COC(=O)C1=C(C)N(c2ccccc2)C(C)=C(C(=O)OC)C1c1ccc(O)c(OC)c1,H37Rv,-,-,MIC,-,>6.25 µg/mL
CCO/C=N/n1c(C(=O)NCCCOC)nc2ccccc2c1=O,H37Rv,-,resazurin,MIC bound,-,>6.25 µg/mL
O=[N+]([O-])c1ccc(Oc2cnc3nc(-c4cc(O)ccc4Br)[nH]c3c2)cc1,H37Rv,-,resazurin / absorbance,MIC80,-,1.1 µM
NC1=NN(c2ccccc2)C(=O)C1C(=O)CCC(=O)Nc1cccc(C(F)(F)F)c1,H37Rv,-,BACTEC,MIC bound,-,>6.25 µg/mL
CCOC(=O)c1cc(-c2ccccc2)sc1NC(C)=O,H37Rv,-,resazurin,MIC,-,>300 µM
CC1COc2c(N3CCN(C)CC3)c(F)cc3c(=O)c(C(=O)O)cn1c23,25 strains,-,-,MIC50,-,0.8 µg/mL
Cc1ccc2c(c1)[n+](=O)c(Sc1ccccc1)c(CBr)n2[O-],H37Rv,-,-,MIC,-,>6.25 µg/mL
O=[N+]([O-])c1ccc(Sc2nc3ccccc3[nH]2)c2ncccc12,H37Rv,-,-,MIC,-,40 µg/mL
COC12CC(=O)C(C(C)=O)=C(O)C1(C)c1c(OC(C)=O)c(C)c(O)c(C(C)=O)c1O2,H37Rv,-,BACTEC,MIC bound,-,>12.5 µg/mL
CCCN1CCN(c2nc(=O)c3cc(C(F)(F)F)cc(C(=O)O)c3s2)CC1,H37Rv,-,resazurin,MIC,-,0.0037 µg/mL
O=S(=O)(Nc1ccc(Cl)c(C(F)(F)F)c1)c1ccc(F)cc1,H37Rv,-,BACTEC,MIC bound,-,>12.5 µg/mL
O=C(NN=C1CCCCC1)c1ccncc1,-,-,-,MIC,-,1 µg/mL
NNC(=O)C(=O)N/N=C(\CC1(O)C(=O)Nc2ccccc21)c1ccc([N+](=O)[O-])cc1,H37Rv,-,BACTEC,MIC bound,-,>12.5 µg/mL
N#CC(Nc1cc(F)ccc1F)c1ccc(OCc2nc3ccccc3[nH]2)cc1,H37Rv,-,resazurin,MIC,-,0.19 µg/mL
COC(=O)C1=C(C)N(c2ccc(Cl)cc2)C(C)=C(C(=O)OC)C1c1ccc(SC)cc1,H37Rv,-,-,MIC,-,>6.25 µg/mL
Cc1ccc(-c2nc3ncc(Oc4ccc([N+](=O)[O-])cc4)cc3[nH]2)c(O)c1,H37Rv,-,resazurin / absorbance,MIC80,-,1.7 µM
Cc1cc(Oc2ccc([N+](=O)[O-])c3cccnc23)cc(C)c1Cl,H37Rv,-,-,MIC,-,1 µg/mL
Cc1c2c(cc3c4ccccc4n(CC4CO4)c13)C(c1ccc(Cl)cc1)=NCC2,H37Rv,-,resazurin,MIC bound,-,>6.25 µg/mL
CCCCCCC[C@@]1(C)Cn2cc([N+](=O)[O-])nc2O1,H37Rv,-,visual reading / absorbance,MIC100,-,0.25 µg/mL
Cc1c(Cl)[n+](=O)c2cc(Cl)ccc2n1[O-],H37Rv,-,-,MIC,-,1.56 µg/mL
C[N+]12CCCc3cc(CO)cc(c31)CCC2.[I-],H37Rv,-,BACTEC,inhibition,12.5 µg/mL,0%
COC(=O)C1=C(C)N(c2ccccc2)C(C)=C(C(=O)OC)C1c1ccc(Cl)cc1,H37Rv,-,-,MIC,-,>6.25 µg/mL
Cc1ccccc1Sc1ccc([N+](=O)[O-])c2cccnc12,H37Rv,-,-,MIC,-,40 µg/mL
COc1ccc2c(C)[n+]3ccc4cc(OC)c(OC)cc4c3cc2c1.O=C(O)CS(=O)(=O)O,H37Rv,-,BACTEC,inhibition,12.5 µg/mL,15%
Cc1c(S(=O)(=O)c2ccccc2)[n+](=O)c2ccc(Cl)cc2n1[O-],H37Rv,-,-,inhibition,6.25 µg/mL,100%
CC(C)c1ccc(O)c(=O)cc1,H37Rv,-,BACTEC,MIC bound,-,>12.8 µg/mL
O=C(O)c1cc(C(F)(F)F)cc2c(=O)nc(N3CCN(CC4CCCCC4)CC3)sc12,NTB1,-,resazurin,MIC99,-,>100 µg/mL
C[C@H]1CCC/C=C/[C@@H]2C[C@H](O)C[C@H]2[C@@H](O)/C=C/C(=O)O1,H37Rv,-,BACTEC,MIC bound,-,>12.8 µg/mL
CN1CCN(c2cc3c(cc2F)c(=O)c(C(=O)O)cn3-c2ccc(F)cc2)CC1,-,-,-,MIC90,-,4.7 µg/mL
O=C(OCc1ccccc1)c1ccccc1-c1c2ccc(=O)cc-2oc2cc(OCc3ccccc3)ccc12,H37Rv,-,BACTEC,inhibition,12.5 µg/mL,75%
Cc1c(Cl)[n+](=O)c2cc(F)c(F)cc2n1[O-],H37Rv,-,-,inhibition,6.25 µg/mL,100%
Cn1c2ccccc2c2cc(C=NNc3nc(-c4ccc([N+](=O)[O-])cc4)cs3)ccc21,H37Rv,-,fluorescence,EC50,-,>200 µM
CO[C@H]1/C=C/O[C@@]2(C)Oc3c(C)c(O)c4c(O)c(c(/C=N/N5CCN(C)CC5)c(O)c4c3C2=O)NC(=O)/C(C)=C\C=C\[C@H](C)[C@H](O)[C@@H](C)[C@@H](O)[C@@H](C)[C@H](OC(C)=O)[C@@H]1C,H37Rv,-,low oxygen,MIC,-,0.048 µM
CCN(CC)CCCCCCn1c2ccccc2c2c(C)c3cnccc3c(C)c21,H37Rv,-,resazurin,MIC bound,-,<6.25 µg/mL
Cc1c(Sc2ccccc2)[n+](=O)c2cc(F)c(F)cc2n1[O-],H37Rv,-,-,MIC,-,0.78 µg/mL
N#CC(Nc1ccccc1F)c1ccc(OCc2nc3ccccc3[nH]2)cc1,H37Rv,-,resazurin,MIC,-,2.81 µg/mL
C[C@H]1COC2(CCN(c3nc(=O)c4cc(C(F)(F)F)cc(C(=O)O)c4s3)CC2)O1,H37Rv,-,resazurin,MIC99,-,0.001 µg/mL